Assay results from US9226954B2, “Method for treating and confirming diagnosis of exertional compartment syndrome” (dated 2016).

Tested on: adductor longus muscle
Experiment: Targeted botulinum toxin injection into the distal adductor longus of a patient with exertional compartment syndrome
[1] = overall conclusion of the example

Substance: onabotulinumtoxin A
- post procedural complications (after injection, CT imaging): No evidence of post procedural complications
- adverse reactions during monitoring (approximately 15-30 minutes following the procedure): no adverse reactions
- injection site findings at follow-up phone call (day following the injection): minor bruising and pain at the injection site
- symptoms while competing at full activity (five weeks post treatment): completely asymptomatic
- weakness at full activity (improved with continued training): minimal weakness with lateral motion
- effect on athletic performance [1]: no adverse affect on athletic performance
- resolution of symptoms [1]: complete resolution of symptoms
- compression of femoral artery and femoral vein on ultrasound (FIGS. 8A, 8B) (three weeks after treatment, at rest and under stress): no compression
- adverse side effects (three weeks follow-up): no adverse side effects were observed or reported
- symptoms at full activity (three weeks post injection): completely asymptomatic
- venous compression under stress maneuvers on sonographic imaging (three weeks post injection): no evidence of venous compression
